Measured values as given in a compilation of properties of binary mixtures (doi:10.1021/acs.jced.0c00879).

Experiment: xn = mol fraction of the nth substance listed
Details: 101 kPa

CC[n+]1ccn(C)c1.O=S(=O)(F)[N-]S(=O)(=O)F + O=S(=O)(F)[N-]S(=O)(=O)F.[K+]
Details | electrical conductivity, x2 = 0 [S/m] | electrical conductivity, x2 = 0.1 [S/m] | electrical conductivity, x2 = 0.2 [S/m] | mass density, x2 = 0 [kg/m3] | mass density, x2 = 0.1 [kg/m3] | mass density, x2 = 0.2 [kg/m3] | viscosity, x2 = 0 [mPa·s] | viscosity, x2 = 0.1 [mPa·s] | viscosity, x2 = 0.2 [mPa·s]
258 K | – | – | 0.149 | – | – | – | – | – | –
263 K | – | 0.332 | 0.206 | – | – | – | – | – | –
268 K | 0.595 | 0.427 | 0.277 | – | – | – | – | – | –
273 K | – | 0.539 | 0.361 | – | 1504 | 1547 | – | 71 | 119
278 K | 0.88 | 0.666 | 0.461 | 1460 | 1499 | 1542 | 37.5 | 56.3 | 91.4
283 K | 1.05 | 0.808 | 0.575 | 1456 | 1495 | 1537 | 31.2 | 45.7 | 71.7
288 K | 1.23 | 0.966 | – | 1451 | 1490 | – | 26.2 | 37.5 | –
293 K | 1.43 | 1.14 | 0.85 | – | 1485 | 1528 | 22.3 | 31.4 | 46.6
298 K | 1.64 | – | 1.01 | – | – | 1523 | 19.2 | – | 39.1
303 K | – | 1.53 | 1.19 | – | 1476 | 1518 | – | 22.7 | 32.8
308 K | – | 1.75 | 1.38 | – | 1471 | 1513 | – | 19.6 | 27.7
313 K | 2.35 | 1.98 | 1.59 | – | 1466 | 1508 | 12.9 | 17 | 23.8
318 K | 2.61 | 2.22 | – | – | 1462 | – | 11.4 | 14.9 | –
323 K | 2.89 | 2.48 | – | – | 1457 | – | 10.2 | 13.1 | –
328 K | – | 2.75 | 2.29 | – | 1453 | 1494 | – | 11.6 | 15.7
333 K | – | – | 2.54 | – | – | 1490 | – | – | 13.8
338 K | 3.79 | 3.33 | 2.83 | 1406 | 1444 | 1485 | 7.45 | 9.3 | 12.2
343 K | 4.13 | 3.62 | 3.12 | 1401 | 1439 | 1480 | 6.79 | 8.38 | 10.8
348 K | 4.47 | – | 3.42 | 1397 | – | 1476 | 6.22 | – | 9.81
353 K | 4.82 | 4.27 | 3.74 | 1393 | 1430 | 1471 | 5.74 | 6.95 | 8.84
358 K | 5.19 | – | 4.06 | 1388 | – | 1467 | 5.32 | – | 7.98
363 K | 5.57 | 4.97 | 4.4 | 1384 | 1421 | 1462 | 4.96 | 5.91 | 7.31
368 K | 5.97 | 5.34 | – | 1380 | 1417 | – | 4.65 | 5.5 | –
373 K | 6.36 | 5.72 | 5.1 | – | – | – | 4.4 | 5.16 | 6.26
378 K | 6.81 | 6.13 | 5.45 | – | – | – | 4.13 | 4.8 | 5.78
383 K | 7.31 | 6.52 | 5.81 | – | – | – | 3.88 | 4.49 | 5.36
388 K | 7.86 | 6.94 | 6.18 | – | – | – | 3.66 | 4.2 | 4.98
